Source: patent US9676793B2, “Co-crystals of 5-amino-2-oxothiazolo[4,5-d]pyrimidin-3(2H)-yl-5-hydroxymethyl tetrahydrofuran-3-yl acetate and methods for preparing and using the same” (Hoffmann-La Roche Inc., priority 2014, dated 2017)

Assay: Salt factor (S)

Substance | Salt factor
Fumaric acid | 1.18
Malonic acid | 1.16
